The filed quantity is “Percent Effect” (%).
The controls that fix the scale are not given in the record; negative values are as filed.
This is part of a subset picked to be rich in strong results.
A dash means the value is not listed here; it may have been measured.

Mtb glucose medium: 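Whole-cell growth test on Mycobacterium tuberculosis, read after 3 days in glucose-containing 7H9 medium; the read-out is not stated. Tested at 500 µM. Direction is inferred from retests: higher values go with more growth inhibition. About 18,000 compounds were tested under these conditions; 7.9% (about 1,400) showed 50% or more at least once.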
Mtb cholesterol medium: 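Growth of Mycobacterium tuberculosis over 4 days (cholesterol / DPPC medium with tyloxapol); the read-out is not stated. Concentration: 500 µM. The record gives no direction; compounds that gave an IC50 in retests scored well above the rest, so higher reads as more growth inhibition. Of about 18,000 compounds tested this way, about 900 (5%) reached 50% or more in at least one test.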

| # | SMILES | Mtb glucose medium | Mtb cholesterol medium |
|---|---|---|---|
| 1 | `O=C(CNC1CC1)NCCc1ccc(F)cc1` | 67% | 65.21% |
| 2 | `CNC(=O)CS(=O)(=O)c1nccn1C` | 3.884% | - |
| 3 | `CN(C)C(=O)CCCS(=O)(=O)CC(=O)N1CCCCC1` | -3.615% | -9.053% |
| 4 | `O=C(c1ccncc1F)N1CCC2(CCC2O)CC1` (configuration not stated) | - | 4.235% |
| 5 | `COC(=O)C(C)(O)Cn1ccccc1=O` (configuration not stated) | - | -10.17% |
| 6 | `CN1CCN(CCCNC(=O)c2ccccc2Cl)CC1` | 10.34% | - |
| 7 | `c1coc(C2CCCN2)c1` (configuration not stated) | 44.62% | - |
| 8 | `CCOCCC(=O)Nc1ccc2c(c1)C(=O)N(C)C2=O` | 1.029% | - |
| 9 | `CC(C)C(NCC(N)=O)c1ccc(F)cc1` (configuration not stated) | 57.41% | - |
| 10 | `Cc1cc(CC(=O)NCCNc2cccnc2)on1` | 5.367% | 3.104% |
| 11 | `CCO[C@H]1CN(C)C[C@@H]1NC(=O)c1cnn(C(C)C)c1` | - | 1.216% |
| 12 | `Cc1ccc(S(=O)(=O)Nc2ccc(C(N)=O)cc2)cc1` | 48.22% | - |
| 13 | `CCOC(=O)N1CCC(N2CCCCC(N)C2)CC1` (configuration not stated) | 14.43% | - |
| 14 | `COCCS(=O)(=O)NC1CCCCC1` | 7.06% | - |
| 15 | `CCCn1ccnc1CN(C)Cc1nc(C)no1` | - | 7.294% |
| 16 | `CN1CCOC(CNC(=O)c2ccc(N)nc2)C1` (configuration not stated) | - | 26.5% |
| 17 | `NCCS(=O)(=O)NCC1CCC1` | 14.6% | -6.97% |
| 18 | `COC(=O)c1csc(NC(=O)c2cnn(C)c2)c1` | 1.171% | - |
| 19 | `O=C(CC1CNCCO1)NCc1ccc2sccc2c1` (configuration not stated) | - | 10.77% |
| 20 | `OCCc1nccs1` | - | -1.264% |
| 21 | `CC(N)c1cc(F)ccc1-n1cccn1` (configuration not stated) | 41.99% | - |
| 22 | `CCNc1ncc(C(=O)N2CCSCC2)cn1` | 28.84% | - |
| 23 | `CCCOc1cc(CNC(=O)c2nccn2C)ccn1` | 60.31% | 63.92% |
| 24 | `COCC(C)NC(=O)c1cnn(C)c1` (configuration not stated) | - | 35.43% |
| 25 | `O=C(Cc1c[nH]c2ccccc12)N1CCCC(CO)C1` (configuration not stated) | - | -4.952% |
| 26 | `Cc1ccc(CN)nc1` | 45.52% | 22.15% |
| 27 | `CC1CCN(S(=O)(=O)N(C)CC(N)=O)CC1` | - | -16.81% |
| 28 | `CSCC[C@H](NC(C)=O)C(=O)NCCn1ccnc1C` | 3.415% | - |
| 29 | `Cn1c(C2CC2)nc2cc(CN)ccc21` | - | -4.52% |
| 30 | `NCCCOCC1CCOC1` (configuration not stated) | - | -16.27% |
| 31 | `COCCSCC(=O)Nc1cccc(C#N)c1` | 29.73% | - |
| 32 | `Cc1ccc(C#N)cc1S(=O)(=O)N1CCC[C@@H](N)C1` | -3.461% | -9.505% |
| 33 | `Cc1ccc(NC(=O)C2CC(=O)N=C(N)S2)cc1Cl` (configuration not stated) | - | 12.66% |
| 34 | `NCC(=O)N1CCCC(CCc2c(F)cccc2F)C1` (configuration not stated) | 83.68% | 84.15% |
| 35 | `Cc1nsc(N2CCCN(c3ccccn3)CC2)n1` | 44.79% | - |
| 36 | `NCc1cccc(S(=O)(=O)N2CCCCC2)c1` | 41.11% | - |
| 37 | `CCNC(=O)NC(=O)CN(C)Cc1ccc(Br)o1` | 21.28% | - |
| 38 | `CC(C1CC1)N(C)CC(=O)Nc1sccc1C(N)=O` (configuration not stated) | - | -2.131% |
| 39 | `CC[C@H](N)C(=O)N(CC)C(C)c1ccc(F)cc1` (some centres not stated) | 37.74% | - |
| 40 | `NC(=O)NCCCN1CCc2ccccc2C1` | 19.28% | 5.512% |
| 41 | `COc1ncccc1CN(C)C(=O)c1ccccc1F` | 59% | 45.11% |
| 42 | `Cc1cc(C(=O)NCCc2ccccc2F)[nH]n1` | 48.85% | 24.24% |
| 43 | `Cc1nn(C)c(Cl)c1C(=O)NCCCN(C)S(C)(=O)=O` | - | -11.86% |
| 44 | `O=C(C1CCCN(C2CCNCC2)C1)N1CCCC1` (configuration not stated) | - | -2.613% |
| 45 | `COc1cc(C)cc(C(=O)NCc2ncc[nH]2)c1O` | 41.51% | - |
| 46 | `COc1ccccc1CNC(=O)CC(F)(F)F` | - | -7.327% |
| 47 | `CCn1ncnc1CN1C[C@H](C2CC2)[C@@H](N)C1` | 12.12% | - |
| 48 | `CC(C)Oc1ccc(S(=O)(=O)N2CCC(N)C2)cc1` (configuration not stated) | 81.22% | - |
| 49 | `c1ccc(NCCN2CCOCC2)cc1` | - | 12.67% |
| 50 | `CN1CCN(S(=O)(=O)N2CCCC2)Cc2ccccc21` | 67.99% | 54.84% |
| 51 | `CCN1CCCC1CNS(=O)(=O)c1cn(C(C)C)cn1` (configuration not stated) | 6.725% | - |
| 52 | `OCCNCCNCc1cccc(Cl)c1Cl` | 57.71% | 52.78% |
| 53 | `CNc1nc(C(=O)N[C@@H]2CC[C@@H](N)C2)cs1` | 2.865% | - |
| 54 | `CCOC(=O)c1ccc(S(=O)(=O)N2CCNCC2)o1` | 4.745% | - |
| 55 | `Nc1nnc(SCC(=O)NCCCc2cccnc2)s1` | 13.82% | - |
| 56 | `CSCC(=O)NCC1(CN2CCOCC2)CCCCC1` | -1.018% | - |
| 57 | `O=C(Cn1nnc(-c2ccccc2)n1)N1CCCC1` | 45.05% | 41.01% |
| 58 | `O=C(c1cc(C2CC2)n[nH]1)N1CCC2(CCCO2)CC1` | 51.5% | - |
| 59 | `CC(C)(C)c1nnc(CN)s1` | - | 13.98% |
| 60 | `CC(C)(C)C(=O)Nc1ccc(Cl)c(C(N)=O)c1` | 38.97% | - |
| 61 | `CCN(C(=O)c1ccc(N)nc1)[C@H]1COC[C@@H]1O` | 2.425% | - |
| 62 | `Nc1ccc(CN2CCN(CCO)CC2)cn1` | 1.079% | - |
| 63 | `Cc1nc(Cn2cc(Br)cn2)no1` | - | 16.62% |
| 64 | `CN(C)S(=O)(=O)N(C)CCc1ccccn1` | 2.286% | - |
| 65 | `CNCCOc1cccc(C)c1` | - | 15.74% |
| 66 | `CCc1ccc(S(=O)(=O)N(C)CC(N)=O)s1` | 56.93% | - |
| 67 | `NCCC(=O)N1CCN(c2ccccn2)CC1` | 18.53% | 9.651% |
| 68 | `COc1ccc(NC(=O)N2CCOCC2C)cc1` (configuration not stated) | 18.32% | - |
| 69 | `CCS(=O)(=O)CC(C)NC1CCN(C(C)C)CC1` (configuration not stated) | - | -3.454% |
| 70 | `CNC(=O)C1CC(=O)N(c2cccc(Cl)c2)C1` (configuration not stated) | - | 4.595% |
| 71 | `CC(C)(C)OC(=O)NCCC1CCCNC1` (configuration not stated) | 23.14% | - |
| 72 | `CNCC(=O)Nc1ccc(Br)cc1C` | - | 38.13% |
| 73 | `COc1ccc(Br)c(CN)c1` | 62.96% | 55.1% |
| 74 | `N#CCS(=O)(=O)N1CCCCC1` | 6.028% | - |
| 75 | `COc1cc(CNCc2ccccn2)ccc1O` | - | -14.58% |
| 76 | `Cc1nc(CNC(CCO)C(C)C)no1` (configuration not stated) | - | -0.8026% |
| 77 | `COCCSc1ccc(C(C)NS(=O)(=O)N(C)C)cc1` (configuration not stated) | 26.13% | - |

Once more, the final 7:

- CC(C)(C)OC(=O)NCCC1CCCNC1 (configuration not stated) : Mtb glucose medium: 23.14%
- CNCC(=O)Nc1ccc(Br)cc1C : Mtb cholesterol medium: 38.13%
- COc1ccc(Br)c(CN)c1 : Mtb glucose medium: 62.96%; Mtb cholesterol medium: 55.1%
- N#CCS(=O)(=O)N1CCCCC1 : Mtb glucose medium: 6.028%
- COc1cc(CNCc2ccccn2)ccc1O : Mtb cholesterol medium: -14.58%
- Cc1nc(CNC(CCO)C(C)C)no1 (configuration not stated) : Mtb cholesterol medium: -0.8026%
- COCCSc1ccc(C(C)NS(=O)(=O)N(C)C)cc1 (configuration not stated) : Mtb glucose medium: 26.13%

Measurements from “University of Dundee, Small-Polar-MMV Screening Library” (2021), ChEMBL document CHEMBL3988442.